Results taken from PubChem BioAssay AID588335 (The Scripps Research Institute Molecular Screening Center, 2011).
This is a selection; strong and weak results do not stand in their true shares. The source made the active and inactive calls. No stated cut-off is given here; in the data, active means inhibition above about 30%; inactive means the rest.

assay: inhibition of GDH and TPI enzymes – biochemical, absorbance, full deck, artefact control for M. tuberculosis FBA inhibitor project, primary screen (AID 588335); conditions: GDH-TPI coupled enzyme counterscreen, NADH absorbance; at 4.8 µM; stronger effect = higher value;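 further: 0% = DMSO wells and 100% = wells lacking the enzyme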

Compound	inhibition
O=C(NCC1(N2CCCCC2)CCCCC1)c1ccc(Cl)s1	inactive: -6.49%
O=C(OC1CN2CCC1CC2)C1c2ccccc2Oc2ccccc21 (configuration not stated)	inactive: 5.49%
COc1ccc(Cl)cc1C(=O)NCC1(N2CCOCC2)CCCCC1	inactive: 7.69%
CCOC(=O)N1CCC(Nc2ccc(OC)cc2)CC1	inactive: -3.88%
O=C(NCC1(N2CCCCC2)CCCCC1)c1ccc(Cl)nc1	inactive: 10.9%
Cc1cc(C)cc(N(C(=O)c2ccccc2)C2CCN(C(=O)OC(C)(C)C)CC2)c1	inactive: 1.72%
O=C(NCC1(N2CCOCC2)CCCCC1)c1cc2ccccc2o1	inactive: -3.13%
O=P1(N(CCCl)CCCl)SCCCS1	inactive: -6.88%
CCCCOc1ccc(C(=O)NCC2(N3CCOCC3)CCCCC2)cc1	inactive: 2.07%
O=C(NCC1(N2CCCCC2)CCCCC1)c1ccc(F)cc1	inactive: -9.96%
COc1ccc(NC2CCN(CCc3ccccc3)CC2)c(OC)c1	inactive: 0.42%
CCOC(=O)N1CCC(Nc2ccc(F)cc2)CC1	inactive: 2.56%
O=C1CCN(Cc2ccccc2)CC1	inactive: 0%
CCOc1ccc(C)cc1CN(CCCl)CCCl	inactive: 9.56%
CCOC(=O)N1CCC(Nc2cccc(C)c2)CC1	inactive: 6.99%
COc1cc(C(=O)NCC2(N(C)C)CCCCC2)ccc1OC(F)F	inactive: 0%
Cc1ccc(C(=O)NCC2(N3CCCCC3)CCCCC2)o1	inactive: -4.98%
Fc1ccccc1NC1CCN(Cc2ccccc2)CC1	inactive: 0%
Cc1ccc(NC2(C#N)CCN(Cc3ccccc3)CC2)cc1	inactive: 3.02%
CC(=O)N(c1ccccc1)C1CCNCC1	inactive: 9.36%
COc1cc(OC)cc(C(=O)NCC2(N3CCCCC3)CCCCC2)c1	inactive: -5.9%
O=C(NCC1(N2CCCCC2)CCCCC1)c1ccco1	inactive: 3.96%
CN(C)c1ccc(C(=O)NCC2(N3CCCCC3)CCCCC2)cc1	inactive: 8.54%
Cn1c(=O)[nH]cc(N(CCCl)CCCl)c1=O	inactive: 0.88%

Compound	inhibition
Cc1ccccc1NC1(C#N)CCN(Cc2ccccc2)CC1	inactive: 2.29%
CCN1CCC(Nc2cccc(F)c2)CC1	inactive: 7.91%
CC(C)(C)OC(=O)N1CCC(Nc2ccccc2)CC1	inactive: 1.27%
O=C(O)C1(Nc2ccccc2)CCN(Cc2ccccc2)CC1	inactive: 5.71%
CCCOc1ccc(C(=O)NCC2(N(C)C)CCCCC2)cc1	inactive: -5.15%
CCOc1ncccc1C(=O)NCC1(N2CCOCC2)CCCCC1	inactive: -6.06%
CN1CCC(Nc2ccc(F)c(Cl)c2)CC1	inactive: 8.63%
CN1CCC(Nc2ccc(Cl)cc2)CC1	inactive: -2.48%
COc1cc(OC)cc(C(=O)NCC2(N3CCOCC3)CCCCC2)c1	inactive: -10.4%
COc1cccc(C(=O)N(c2cc(C)cc(C)c2)C2CCN(C(=O)OC(C)(C)C)CC2)c1	inactive: -5.17%
CCC(CO)(C(=O)OC1CN2CCC1CC2)c1ccccc1 (configuration not stated)	inactive: 5.99%
COc1ccc(C(=O)NCC2(N3CCOCC3)CCCCC2)cc1OC	inactive: 0%
COc1cc(C(=O)NCC2(N3CCOCC3)CCCCC2)cc(OC)c1C	inactive: 2.2%
O=C(NCC1(N2CCOCC2)CCCCC1)c1cc(Br)ccc1Cl	inactive: 15.4%
O=C(OC1CN2CCC1CC2)C1c2ccccc2C=Cc2ccccc21 (configuration not stated)	inactive: 14.2%
CCOC(=O)N1CCC(Nc2ccc(C)cc2)CC1	inactive: -2.86%
N/C(=N\O)c1c(N)no[n+]1[O-]	inactive: 7.63%
N#Cc1ccc(C(=O)NCC2(N3CCCCC3)CCCCC2)cc1	inactive: 13.4%
CC(C)(C)OC(=O)N1CCC(N(C(=O)c2ccccc2)c2ccc(Cl)cc2)CC1	inactive: 7.14%
CN(C)C1(CNC(=O)c2cccc(C#N)c2)CCCCC1	inactive: 6.03%
c1ccc(CN2CCC(Nc3ccccc3)CC2)cc1	inactive: -1.51%
Cc1cc(N(CCCl)CCCl)ccc1C=O	active: 40.5%
CCCN1CCC(Nc2cc(OC)cc(OC)c2)CC1	inactive: -3.85%
